A mixed list of measured activities; the numbers were collected in NIAID ChemDB.

All rows: toxicity to cultured cells; cells: MT-2; read-out: CC50

An empty or dashed field is not shown. a–b is a range or a potency band. CCn is the concentration with n% toxicity to the cells. Conditions beyond the fields shown may differ between rows.

{"smiles": "O=C(O)[C@H](Cc1ccc(O)c(O)c1)[C@@H](Cc1ccc(O)c(O)c1)C(=O)O", "method": "neutral red", "value": ">71 µM"}
{"smiles": "CCCCCCCCCCCCCCCCOCCCOP(=O)(O)COCCn1cc(F)c(=O)[nH]c1=O", "method": "propidium iodide", "value": "36.5 µM"}
{"smiles": "CN1CCC2(CC1)C(=O)N(c1ccccc1)c1ccccc12", "value": "55 µM"}
{"smiles": "CC(C)(C)NC(=O)[C@@H]1C[C@@H]2CCCC[C@@H]2CN1C[C@@H](O)[C@H](Cc1ccccc1)NC(=O)[C@H](CC(N)=O)NC(=O)c1ccc2ccccc2n1", "method": "neutral red", "value": "23 µM"}
{"smiles": "Cc1cn([C@H]2C[C@H](N=[N+]=[N-])[C@@H](COC(=O)C(=O)NC(Cc3ccccc3)C(=O)O)O2)c(=O)[nH]c1=O", "method": "sulforhodamine", "value": "400 µM"}
{"smiles": "O=C(/C=C/c1ccc(O)c(O)c1)NCC(NC(=O)/C=C/c1ccc(O)c(O)c1)C(=O)O", "method": "neutral red", "value": ">35 µM"}
{"smiles": "COc1cc([C@@H]2c3c(ccc4ccccc34)C(=O)[C@H]3COC(=O)[C@@H]23)cc(OC)c1OC", "method": "propidium iodide", "value": ">50 µM"}
{"smiles": "CCN(CC)CCNc1cc(-c2cccs2)nc2ccccc12", "method": "ATP / luminescence", "value": "50 µM"}
{"smiles": "CCCCCCCCCCCCCCCCOCCCOP(=O)(O)COCCn1cc(Br)c(N)nc1=O", "method": "propidium iodide", "value": "38 µM"}
{"smiles": "C=C(C)[C@@H]1CC[C@]2(C)CC[C@]3(C)[C@H](C[C@@H](O)[C@@H]4[C@@]5(C)CC[C@@H](O)C(C)(C)[C@@H]5CC[C@]43C)[C@@H]12", "method": "ATP", "value": "20–100 µM"}
{"smiles": "CCCc1cc(=O)oc2c3c(c4c(c12)OC(C)(C)C=C4)O[C@@H](C)[C@H](C)[C@H]3O", "value": ">1 µg/mL"}
{"smiles": "Nc1nc(NC2CC2)c2ncn([C@H]3C=C[C@@H](CO)C3)c2n1", "method": "neutral red", "value": "135.6 µM"}
{"smiles": "Fc1nc(N2CCNCC2)c(F)c(Sc2ccc(Cl)cc2)c1F", "method": "ATP / luminescence", "value": "43.9 µM"}
{"smiles": "O=C(O[C@@H](C(=O)O)[C@@H](OC(=O)c1cccs1)C(=O)O)c1cccs1", "method": "neutral red", "value": ">190 µM"}
{"smiles": "Cc1cn([C@H]2C=C[C@@H](CO)O2)c(=O)[nH]c1=O", "method": "neutral red", "value": "564 µM"}
{"smiles": "CC[C@H](C)[C@H](NC(=O)C(=O)OC[C@H]1O[C@@H](n2cc(C)c(=O)[nH]c2=O)C[C@@H]1N=[N+]=[N-])C(=O)O", "method": "sulforhodamine", "value": "450 µM"}
{"smiles": "Cc1nc(CC2(Cc3csc(C)n3)C(=O)N(c3ccccc3)c3ccccc32)cs1", "value": "81 µM"}
{"smiles": "CCN(CC)C(=O)[C@H](Cc1ccc(O)c(O)c1)[C@@H](Cc1ccc(O)c(O)c1)C(=O)O", "method": "neutral red", "value": ">93 µM"}
{"smiles": "Nc1c(S(=O)(=O)c2ccc(Cl)cc2)cc2c(=O)n3ccccc3nc2[n+]1C1CCCCC1", "method": "ATP / luminescence", "value": ">100 µM"}
{"smiles": "CCOC(=O)N1CCC(CC2C(=O)N(c3ccccc3)c3ccccc32)CC1", "value": "48 µM"}
{"smiles": "CCCCCCCCCCCCCCCCOCCCOP(=O)(O)CO[C@H](CO)Cn1cnc2c(N)nc(N)nc21", "method": "propidium iodide", "value": "68 µM"}
{"smiles": "C[C@H](CCC(=O)O)[C@H]1CC[C@H]2[C@@H]3[C@H](OC(=O)/C=C/c4ccc(O)c(O)c4)C[C@@H]4C[C@H](OC(=O)/C=C/c5ccc(O)c(O)c5)CC[C@]4(C)[C@H]3C[C@H](OC(=O)/C=C/c3ccc(O)c(O)c3)[C@]12C", "method": "neutral red", "value": ">11.4 µM"}
{"smiles": "NC(=O)C(c1ccccc1)(c1ccccc1)[C@H]1CCCN(CCOCc2ccccc2)C1", "method": "XTT", "value": "18 µM"}
{"smiles": "Cc1cn([C@H]2C[C@H](N=[N+]=[N-])[C@@H](COC(=O)C(=O)O)O2)c(=O)[nH]c1=O", "method": "sulforhodamine", "value": "400 µM"}
{"smiles": "CC(=O)Nc1ccc(S(=O)(=O)N(CCC(C)C)C[C@@H](O)[C@@H]2Cc3ccc(cc3)OCCCC[C@H](NC(=O)OC(C)(C)C)C(=O)N[C@@H](C(C)C)C(=O)N2)cc1", "method": "trypan blue", "value": "7.08 µM"}
{"smiles": "CC(C)OC(=O)[C@H](C)NP(=O)(CO[C@H](C)Cn1cnc2c(N)ncnc21)Oc1ccccc1", "method": "XTT / absorbance", "value": "95 µM"}
{"smiles": "CCCOC[C@@H]1NC(=O)[C@@H](NC(=O)OC(C)(C)C)CCCCOc2ccc(cc2)C[C@@H]([C@H](O)CN(CCC(C)C)S(=O)(=O)c2ccc(NC(C)=O)cc2)NC1=O", "method": "trypan blue", "value": "5.61 µM"}
{"smiles": "COc1cc(C(O)[C@H]2C(=O)OC[C@@H]2C2(c3ccc4ccccc4c3)SCCCS2)cc(OC)c1OC", "method": "propidium iodide", "value": ">50 µM"}
{"smiles": "CC(C)Nc1cccnc1N1CCN(C(=O)c2cc3cc(NS(C)(=O)=O)ccc3[nH]2)CC1", "method": "neutral red", "value": "1654 µM"}
{"smiles": "NC(=O)C(c1ccccc1)(c1ccccc1)C1CCCN(CCCOCc2ccccc2)C1", "method": "XTT", "value": "51 µM"}
{"smiles": "COc1cc(C(O)[C@@H]2C(=O)OC[C@H]2C(=O)c2cccc3ccccc23)cc(OC)c1OC", "method": "propidium iodide", "value": ">50 µM"}
{"smiles": "NC(=O)C(c1ccccc1)(c1ccccc1)[C@H]1CCCN(CCc2ccc3c(c2)CCO3)C1", "method": "XTT", "value": "53 µM"}
{"smiles": "O=C(O)C(=Cc1ccc(O)c(O)c1)C(=Cc1ccc(O)c(O)c1)C(=O)O", "method": "neutral red", "value": ">55 µM"}
{"smiles": "Cc1cn([C@H]2C[C@H](N=[N+]=[N-])[C@@H](CO)O2)c(=O)[nH]c1=O", "method": "neutral red", "value": "349 µM"}
{"smiles": "COc1cc([C@@H]2c3cccc4cccc(c34)C3(SCCCS3)[C@H](CO)[C@@H]2CO)cc(OC)c1OC", "method": "propidium iodide", "value": ">50 µM"}
{"smiles": "C[C@H](CCC(=O)O)[C@H]1CC[C@H]2[C@@H]3CC[C@@H]4C[C@H](OC(=O)/C=C/c5ccc(O)c(O)c5)CC[C@]4(C)[C@H]3C[C@H](OC(=O)/C=C/c3ccc(O)c(O)c3)[C@]12C", "method": "neutral red", "value": ">6.4 µM"}
{"smiles": "Nc1nc(=O)n(CCOCP(=O)(O)O)cc1F", "method": "propidium iodide", "value": ">100 µM"}
{"smiles": "O=C1c2c(O)ccc(O)c2C(=O)c2c(NCCNCCO)ccc(NCCNCCO)c21", "method": "ATP", "value": "25–50 µM"}
{"smiles": "CC(C)OC(=O)[C@H](C)N[P@](=O)(CO[C@H](C)Cn1cnc2c(N)ncnc21)Oc1ccccc1", "method": "XTT / absorbance", "value": "40 µM"}
{"smiles": "NC(=O)[C@H](Cc1ccc(O)c(O)c1)[C@@H](Cc1ccc(O)c(O)c1)C(=O)O", "method": "neutral red", "value": ">123 µM"}
{"smiles": "Cc1cn([C@H]2C[C@H](N=[N+]=[N-])[C@@H](COC(=O)C(=O)N[C@@H](CC(C)C)C(=O)O)O2)c(=O)[nH]c1=O", "method": "trypan blue", "value": "10 µM"}
{"smiles": "CN(C)C(=O)C(c1ccccc1)(c1ccccc1)[C@H]1CCCN(CCc2ccc3c(c2)CCO3)C1", "method": "XTT", "value": "47 µM"}

Repeating the first 5 entries:

smiles	method	value
O=C(O)[C@H](Cc1ccc(O)c(O)c1)[C@@H](Cc1ccc(O)c(O)c1)C(=O)O	neutral red	>71 µM
CCCCCCCCCCCCCCCCOCCCOP(=O)(O)COCCn1cc(F)c(=O)[nH]c1=O	propidium iodide	36.5 µM
CN1CCC2(CC1)C(=O)N(c1ccccc1)c1ccccc12	-	55 µM
CC(C)(C)NC(=O)[C@@H]1C[C@@H]2CCCC[C@@H]2CN1C[C@@H](O)[C@H](Cc1ccccc1)NC(=O)[C@H](CC(N)=O)NC(=O)c1ccc2ccccc2n1	neutral red	23 µM
Cc1cn([C@H]2C[C@H](N=[N+]=[N-])[C@@H](COC(=O)C(=O)NC(Cc3ccccc3)C(=O)O)O2)c(=O)[nH]c1=O	sulforhodamine	400 µM